From ChEMBL document CHEMBL3797190, “Development of 3,5-Dinitrobenzylsulfanyl-1,3,4-oxadiazoles and Thiadiazoles as Selective Antitubercular Agents Active Against Replicating and Nonreplicating Mycobacterium tuberculosis” (J Med Chem, 2016) come the findings set out here.

The test system of data set [1] is HeLa. The data set can be described thus: Cytotoxicity against human HeLa cells assessed as cell viability at 20 uM after 24 hrs by MTS assay. The data set is classed as cell-based.
Data set [2] is described as follows: Cytotoxicity against human HuH7 cells assessed as cell viability at 20 uM after 24 hrs by MTS assay. The data set is classed as cell-based. Conditions: huh-7, 24 h.
For data set [3], the system named is HeLa. Kind of data set: Cytotoxicity against human HeLa cells assessed as cell viability at 20 uM after 48 hrs by MTS assay. The data set is classed as cell-based.
For data set [4], the system named is Salmonella typhimurium. Kind of data set: Mutagenic activity in Salmonella typhimurium TA100 assessed as reverse mutation at 30 uM by Ames test. The note with it: salmonella enterica subsp. enterica serovar typhimurium.
Data set [5] can be described thus: Cytotoxicity against human HuH7 cells assessed as cell viability at 20 uM after 48 hrs by MTS assay. Format: cell-based. Conditions: huh-7, 48 h.
Data set [6] in a line: Cytotoxicity against MDCK2-MDR1 cells assessed as cell viability after 48 hrs by MTS assay. Conditions: mdck-ii.
Data set [7] deals with Hepatocyte. The data set can be described thus: Cytotoxicity against primary human hepatocytes assessed as cell viability after 48 hrs by MTS assay. Format: cell-based.
Data set [8] is described as follows: Cytotoxicity against human HuH7 cells assessed as cell viability after 48 hrs by MTS assay. Format: cell-based. Conditions: huh-7.
The nature of data set [9]: Cytotoxicity against MDCK2-MDR1 cells assessed as cell viability at 20 uM after 24 hrs by MTS assay. The note with it: dog, mdck-ii.
For data set [10], the system named is Salmonella typhimurium. Kind of data set: Mutagenic activity in Salmonella typhimurium TA98 assessed as reverse mutation at 30 uM by Ames test. The note with it: salmonella enterica subsp. enterica serovar typhimurium.
The test system of data set [11] is HeLa. Kind of data set: Cytotoxicity against human HeLa cells assessed as cell viability after 24 hrs by MTS assay. Format: cell-based.
Data set [12] relates to HeLa. Kind of data set: Cytotoxicity against human HeLa cells assessed as cell viability after 48 hrs by MTS assay. The data set is classed as cell-based.
A short description of data set [13]: Cytotoxicity against MDCK2-MDR1 cells assessed as cell viability after 24 hrs by MTS assay. The note with it: mdck-ii.
Data set [14] in a line: Cytotoxicity against human HuH7 cells assessed as cell viability after 24 hrs by MTS assay. Conditions: huh-7. Format: cell-based.
In data set [15] the test system is Hepatocyte. Kind of data set: Cytotoxicity against primary human hepatocytes assessed as cell viability at 20 uM after 48 hrs by MTS assay. Format: cell-based.
Data set [16] in a line: Cytotoxicity against MDCK2-MDR1 cells assessed as cell viability at 20 uM after 48 hrs by MTS assay. Conditions: dog, mdck-ii.

Consider `O=[N+]([O-])c1ccc(-c2nnc(SCc3cc([N+](=O)[O-])cc([N+](=O)[O-])c3)o2)cc1`, for which the Activity is 93.6% in the data set with HeLa [1]; 101% in data set [2]; 109% in the data set on HeLa [3]; “Toxic” in the data set on Salmonella typhimurium [4]; 111% in data set [5]; 82% in data set [9]. For the same molecule, the Activity entry was “Non-toxic” with Salmonella typhimurium [10], 107% with Hepatocyte [15] and 97.4% in data set [16]. Further, the IC50 (in data set [6]; in the data set on Hepatocyte [7]; in data set [8]; in the data set with HeLa [11]; in the data set on HeLa [12]; in [13]) was greater than 20 µM in each case. The IC50 in data set [14] was greater than 20 µM.

Consider `O=[N+]([O-])c1ccc(-c2nnc(SCc3ccc([N+](=O)[O-])cc3[N+](=O)[O-])o2)cc1`, for which the Activity in the data set on HeLa [1] was found to be 90.1%; in [2] it was 107%; with HeLa [3], 117%; in data set [5], 99.6%; in [9], 85.2%; in data set [16], 120%. Also, the IC50 (in data set [6]; in data set [8]; with HeLa [11]; in the data set on HeLa [12]; in data set [13]; in data set [14]) was greater than 20 µM in each case.

With `O=[N+]([O-])c1ccc(-c2nnc(SCc3cc([N+](=O)[O-])cc([N+](=O)[O-])c3)s2)cc1`, the Activity is 89.2% in the data set with HeLa [1]; 99.5% in [2]; 120% with HeLa [3]; 97.9% in [5]; 75% in data set [9]; 104% in data set [16]. Also, the IC50 (in data set [6]; in data set [8]; in the data set with HeLa [11]; with HeLa [12]; in data set [13]; in [14]) was greater than 20 µM each time.
